Test results as given in publication PMC12079475, “Identification, validation, and characterization of approved and investigational drugs interfering with the SARS‐CoV‐2 endoribonuclease Nsp15” (Protein Science : A Publication of the Protein Society, 2025).

Assay: Readout interference test: compound added after the enzymatic reaction ran to completion
Settings: compound added after 1 h Nsp15/substrate reaction

Row | SMILES | autofluorescence
1 | CO[C@@H]1[C@@H](OC(N)=O)[C@@H](O)[C@H](Oc2ccc3c(O)c(NC(=O)c4ccc(O)c(CC=C(C)C)c4)c(=O)oc3c2C)OC1(C)C [novobiocin sodium] | strong autofluorescence
2 | COc1cccc2c1C(=O)c1c(O)c3c(c(O)c1C2=O)C[C@@](O)(C(C)=O)C[C@@H]3O[C@H]1C[C@H](N)[C@H](O)[C@H](C)O1 [daunorubicin] | strong autofluorescence
